Compound potency records, mixed from different reports. Data source: NIAID ChemDB in PubChem.

Shared fields: growth or infection tests; species: Toxoplasma gondii

A number after MIC or MFC names an inhibition level or a share of isolates. Blank or dashed fields: not listed here. a–b is a range or a potency band. ECn is the concentration giving n% inhibition of infection, replication or growth. Percent inhibition refers to the dose given; in toxicity tests it is the harm to the cells. Conditions beyond the fields shown may differ between rows.

smiles,cells,conditions,endpoint,strain,tested at,result
OC[C@H]1O[C@@H](n2cnc3c(SCc4ccc(Cl)cc4Cl)ncnc32)[C@H](O)[C@@H]1O,,,inhibition,RH adenosine kinase-deficient,50 µM,0%
COc1ccc(OCc2ccccc2C(=O)NC(=S)Nc2ccccc2I)cc1,Human foreskin fibroblasts (HFF),,EC50,RH beta-gal,,86 µM
CCN(CC)c1ccc(C(=O)NS(=O)(=O)c2ccccc2O)cc1,Human foreskin fibroblasts,,MIC50,,,>1 µM
CC[C@H]1OC(=O)[C@H](C)[C@@H](O[C@H]2C[C@@](C)(OC)[C@@H](O)[C@H](C)O2)[C@H](C)[C@@H](O[C@@H]2O[C@H](C)C[C@H](N(C)C)[C@H]2O)[C@](C)(O)C[C@@H](C)CN(C)[C@H](C)[C@@H](O)[C@]1(C)O,,20 h,inhibition,RH,37.48 µg/mL,90%
COc1ccc(OCc2ccccc2C(=O)NC(=S)Nc2ccc(Br)cc2)cc1,Human foreskin fibroblasts (HFF),,EC50,RH beta-gal,,39 µM
Cc1occc1C(=O)NC(=O)c1ccccc1O,Human foreskin fibroblasts,,MIC90,,,>10 µM
CC(C)(C)c1ccc(CSc2ncnc3c2ncn3[C@@H]2O[C@H](CO)[C@@H](O)[C@H]2O)cc1,,,inhibition,RH (WILD TYPE),25 µM,52.8%
N#CC(c1ccc(Cl)cc1)c1c(Cl)cc(-n2ncc(=O)[nH]c2=O)cc1Cl,,,inhibition,RH,0.005 µg/mL,97.8–98%
O=C(NC(=S)Nc1c(Cl)cccc1Cl)c1ccccc1COc1ccc(F)cc1,Human foreskin fibroblasts (HFF),,EC50,RH beta-gal,,53 µM
O=C(NC(=O)c1ccccc1O)c1ccc(OCc2ccccc2)cc1,Human foreskin fibroblasts,,MIC90,,,>0.25 µM
O=C(NC(=S)Nc1cccc(Br)c1)c1ccccc1COc1ccc(Cl)cc1,Human foreskin fibroblasts (HFF),,EC50,RH beta-gal,,59 µM
O=C(NC(=O)c1ccccc1O)Nc1ccc(OC(F)(F)F)cc1,Human foreskin fibroblasts,,MIC50,,,>0.25 µM
COc1ccccc1NC(=S)NC(=O)c1ccccc1COc1ccc(Cl)cc1,Human foreskin fibroblasts (HFF),,EC50,RH beta-gal,,99 µM
CN1CCC(c2cc(-c3ccncc3)c(-c3ccc(F)cc3)[nH]2)CC1,,,EC50,TG-PKG FLAG,,0.3 µM
O=C(NC(=O)c1ccccc1O)c1ccc(N2CCOCC2)cc1,Human foreskin fibroblasts,,MIC90,,,0.125–0.25 µM

The last 2 rows once more:

{"smiles": "CN1CCC(c2cc(-c3ccncc3)c(-c3ccc(F)cc3)[nH]2)CC1", "endpoint": "EC50", "strain": "TG-PKG FLAG", "result": "0.3 µM"}
{"smiles": "O=C(NC(=O)c1ccccc1O)c1ccc(N2CCOCC2)cc1", "cells": "Human foreskin fibroblasts", "endpoint": "MIC90", "result": "0.125–0.25 µM"}